Measured values from several laboratories, pooled; numbers as filed in NIAID ChemDB.

Shared fields: cytotoxicity tests; read-out: CC50

An empty or dashed field is not shown. Lines come from different laboratories, so protocols vary. CCn: concentration that lowers growth or viability of the cells by n%.

SMILES	cell line	method	result
OC[C@H]1O[C@@H](n2cnc3c(NC4CC4)cc(Cl)nc32)C[C@@H]1O	MDBK		185 µM
CN=C(NN(C)C)c1ccc(NC(=O)c2ccc(C(=O)Nc3ccc(C(=NC)NN(C)C)cc3)cc2)cc1	VERO		>50 µg/mL
OC[C@@H]1C[C@@H](O)[C@H](n2cnc3c(NC4CCCCCC4)cc(Cl)nc32)O1	Sheep chondrocytes G81092		145 µM
CC1CCN(SSc2nc3ccccc3s2)CC1	VERO		13 µg/mL
NC1=NC2C(C=CN2CC(CO)CCO)C(=O)N1	SupT1		107 µg/mL
OC[C@@H]1C[C@@H](O)[C@H](n2cnc3c(NC4CCCCC4)nc(Cl)cc32)O1	MDBK		255 µM
CCCCN(CCCC)CCCOC(=O)c1ccc2oc3ccc(C(=O)OCCCN(CCCC)CCCC)cc3c2c1	VERO		>125 µg/mL
COc1cc(-c2ccccc2)c(O)c(OC)c1O	MCF-7	sulforhodamine / absorbance	>50 µM
CC(C)(C)NC(=O)NC(=S)NC(=O)C1C(C=C(Cl)Cl)C1(C)C	MDCK	MTS	>300 µM
COc1ccc2c(C)cc(N/N=C/c3ccccn3)nc2c1	VERO		0.82 µg/mL
Nc1ncnc2c1ncn2C[C@H]1COP(=O)(O)CO1	CBMC	MTT	66 µM
CO[C@H]1/C=C/O[C@@]2(C)Oc3c(C)c(O)c4c(O)c(c(/C=N/N5CCN(C)CC5)c(O)c4c3C2=O)NC(=O)/C(C)=C\C=C\[C@H](C)[C@H](O)[C@@H](C)[C@@H](O)[C@@H](C)[C@H](OC(C)=O)[C@@H]1C	A549 cells	MTT	>50 µg/mL
N#CC1(c2nc3ccccc3o2)C(=O)C(=O)N(c2ccc(Cl)c(Cl)c2)C(=O)C1=O	VERO		>10 µg/mL
CC(C)=CCC[C@@H](C)[C@@H]1CC[C@]2(C)C3=C(CC[C@@]12C)[C@@]1(C)CC[C@H](O)C(C)(C)[C@@H]1CC3	HT-29	sulforhodamine / absorbance	>50 µM
Nc1ccn(C[C@H]2COP(=O)(O)CO2)c(=O)n1	SupT1		90 µg/mL
CCOc1cc(Cl)nc(NC(=S)NC(=O)c2cccnc2Cl)n1	MDCK	MTS	>300 µM
O=C(Nc1ccc(OC(F)(F)F)cc1)NC1N=C(c2ccccc2)c2ccccc2NC1=O	HEP-2		2 µM
Nc1ncnc2c1ncn2[C@H]1CC[C@@H](CO)O1	Sheep chondrocytes G81092		>400 µM
CC(=O)NC1[C@H](COC[C@@H]2C(CO)O[C@@H](COC[C@@H]3C(CO)O[C@@H](O)C(NC(C)=O)[C@@H]3O)C(NC(C)=O)[C@@H]2O)OC(CO)[C@@H](O)[C@H]1O	HeLa		>200 µg/mL
O=C(Nc1ncc([N+](=O)[O-])s1)c1cccc([N+](=O)[O-])c1	VERO		4.44 µg/mL
C[C@@H]1O[C@@H]1P(=O)(O)O	HeLa		200 µg/mL
CCCCCCCCCCCCCCCCOP(=O)([O-])OCC[n+]1ccccc1	MCF	MTT	8.1 µM
Nc1ccn(C[C@@H](CO)OCP(=O)(O)O)c(=O)n1	CBMC	MTT	180 µM
O=c1[nH]c(=O)n([C@H]2C[C@H](O)[C@@H](CO)O2)cc1/C=C/Br	CD4+ T lymphocytes		90 µg/mL
CN(C)c1ccccc1C(=O)NC1N=C(c2ccccc2)c2ccccc2NC1=O	HEP-2		1.5 µM
COC1(CO)C(=O)N(C)CC(=O)N1C	VERO		>10 µg/mL
COc1ccc(-c2cc(=O)c3c(OC)cc(OC)c([C@H]4C(=O)c5c(OC)cc(OC)cc5O[C@@H]4c4ccc(OC)cc4)c3o2)cc1	MA-104	visual reading	~15 µg/mL
Nc1ccn(C[C@@H](CO)OCP(=O)(O)O)c(=O)n1	HSB-2		141 µM
C/C(=N/NC(=S)N1CCC(C)CC1)c1nccnc1C	VERO		0.57 µg/mL
CO[C@H]1[C@@H](O)[C@H](O)[C@H](OC[C@@]23C[C@@H]4[C@H](C)CC[C@H]4[C@@]4(C=O)C[C@@H]2C=C(C(C)C)[C@@]34C(=O)O)O[C@@H]1C	HeLa		200 µg/mL
CCOC(=O)[C@H]1O[C@@H]([C@@]2(C)O[C@]3(O[C@]4(C=C[C@H]3O)O[C@H]([C@@H](C)C(=O)[C@@H](C)[C@@H](O)[C@H](C)C[C@H](C)c3c(Cl)cc(C)c(O)c3C(=O)O)[C@@H](C)C[C@H]4C)[C@H](C)[C@H]2OC)C[C@H]1O	VERO		1.68 µg/mL
CCCCCCCCCCCCCCCC[N+](C)(C)Cc1ccccc1	MCF	MTT	1 µM
O=C1C[C@@H](c2ccc(O)cc2)Oc2cc(O)c(-c3c(O)cc4c(c3O)C(=O)C[C@@H](c3ccc(O)cc3)O4)c(O)c21	MDCK	neutral red	7 µg/mL
OC[C@H]1O[C@@H](n2cnc3c(NC4CCCCCC4)nc(Cl)nc32)CC1O	Sheep chondrocytes G81092		98 µM
CC1Oc2cc(O)c3c(=O)c4ccc(O)c(O)c4oc3c2C1(C)C	P-388	sulforhodamine / absorbance	4.66 µM
COc1cc(C)nc(NC(=S)NC(=O)c2ccc(Cl)nc2)n1	MDCK	MTS	>300 µM
O=c1cc(-c2ccc(Oc3c(O)cc4oc(-c5ccc(O)cc5)cc(=O)c4c3O)cc2)oc2cc(O)cc(O)c12	BSC-1	visual reading	<4 µg/mL
COc1cc(-c2ccccc2)c(OC)c(OC)c1O	HT-29	sulforhodamine / absorbance	>50 µM
O=c1[nH]c(=O)n([C@@H]2O[C@H](CO)[C@@H](O)[C@@H]2O)cc1/C=C/Br	HSB-2	MTT	232 µM
COc1cc(OC)n2sc(=NC(=O)c3cccnc3)nc2n1	MDCK	MTS	>300 µM
CCN(CC)CCNc1ccc2ncn3c4ccc(O)cc4c(=O)c1c23.Cl	VERO		0.85 µg/mL
OC[C@H]1O[C@@H](n2cnc3c(NC4CCCC4)nc(Cl)cc32)[C@H](O)[C@@H]1O	Sheep chondrocytes G81092	MTT	205 µM
NCCc1ccc2oc3cc(=O)c4ccccc4c-3nc2c1	VERO		2.6 µg/mL
Cc1ccc(C(=O)NC2N=C(c3ccccc3)c3ccccc3NC2=O)o1	HEP-2		2 µM
N=C(N)c1ccc(-c2ccc(-c3ccccc3)o2)cc1	VERO		1.5 µg/mL
Cc1cccc(C)c1NC(=O)NC1N=C(c2ccccc2)c2ccccc2NC1=O	HEP-2		6 µM
Nc1ncnc2c1ncn2[C@@H]1O[C@H](CO)C[C@@H]1O	U87MG		50 µg/mL
CCN(CC)CCN1c2ccc(OC)cc2Sc2ccc3ccccc3c21	VERO		8.3 µg/mL
O=c1[nH]c(=O)n([C@H]2C[C@H](O)[C@@H](CO)O2)cc1/C=C/Br	HSB-2		1.2 µM
CSc1c2c(c(C)c3c1[nH]c1ccccc13)C=NCC2	VERO		>10 µg/mL
Nc1ncc2c(ncn2COC(CO)CO)n1	HSB-2		0.85 µM
OC(c1cc(-c2ccccc2)nc2ccc(Cl)cc12)C1CCCCN1	VERO		3.2 µg/mL
CCOc1cc(OCC)nc(NC(=S)NC(=O)c2ccc(Cl)nc2)n1	MDCK	MTS	>300 µM
Cc1ccc(Nc2cn(C3C=CC(O)C3)c(=O)n(C3C=CC(O)C3)c2=O)cc1	Huh7 cells	MTT	>50 µg/mL
CC(C)(C)CC(C)(C)c1ccc(OCCOP(=O)([O-])OCCC[N+](C)(C)Cc2ccccc2)cc1	MCF	MTT	>100 µM
Nc1nc(Cl)cc(NCCCCCCCCCCCCNc2cc(Cl)nc(N)n2)n1	VERO		>10 µg/mL
O=c1c(Nc2ccccc2)cn(C2C=CC(O)C2)c(=O)n1C1C=CC(O)C1	Huh7 cells	MTT	>50 µg/mL
Cc1ccc(NC(=O)c2ccco2)cc1Cl	VERO		53.59 µg/mL
Nc1nc(=O)n([C@@H]2CS[C@H](CO)O2)cc1F	2.2.15		>200 µM
CCCCCN(CCCCC)CCCNc1ccc(C)c2sc3ccccc3c(=O)c12	VERO		17.1 µg/mL
O=C(O)CP(=O)(O)O	CBMC	MTT	332 µM
CCCCCCCCCCCCCCCCOP(=O)([O-])OCCC[N+](C)(C)C	MCF	MTT	45.2 µM
Nc1nc2c(ncn2[C@@H]2C[C@H](CO)[C@H]2CO)c(=O)[nH]1	HSB-2		37 µM
COc1cc(OC)nc(NC(=S)NC(=O)c2cccnc2)n1	MDCK	MTS	>300 µM
CC[C@H]1OC(=O)[C@H](C)[C@@H](OC2CC(C)(OC)C(O)C(C)O2)C(C)[C@@H](OC2OC(C)CC(N(C)C)C2O)[C@](C)(O)C[C@@H](C)C(=O)[C@H](C)[C@@H](O)[C@H]1C	HeLa		>200 µg/mL
OC[C@H]1O[C@@H](n2cnc3c(NC4CC4)nc(Cl)nc32)[C@H](O)[C@@H]1O	MDBK		359 µM
Cc1cc(=O)[nH]c(NC(=S)NC(=O)c2ccc(-c3ccccc3Cl)o2)n1	MDCK	MTS	>300 µM
O=C1c2c(O)cc(O)cc2O[C@@H](c2ccc(O)cc2)[C@@H]1c1c(O)cc(O)c2c(=O)cc(-c3ccc(O)c(O)c3)oc12	P-388	sulforhodamine / absorbance	20.47 µM
Cc1occc1C(=S)Nc1ccc(Cl)c(/C=N/OC(C)C)c1	VERO		6.9 µg/mL
Nc1ncnc2c1ncn2C[C@@H](CO)OCP(=O)(O)O	TR-14		>50 µg/mL
Nc1ncc2c(ncn2COC(CO)CO)n1	SupT1		0.051 µg/mL
COc1ccc2c(c1)c1c(C)c3cnccc3c(C)c1n2CCCN1C(=O)c2ccccc2C1=O	VERO		1.28 µg/mL
Nc1ccn([C@H]2CC[C@@H](CO)O2)c(=O)n1	2.2.15		>200 µM
Nc1ncnc2c1ncn2CCOCP(=O)(O)O	HSB-2	MTT	277 µM
Nc1nc(=O)n([C@@H]2O[C@H](CO)[C@@H](O)[C@@H]2F)cc1I	HSB-2		2.4 µM
OC[C@@H](O)C(O)[C@H](O)CO	HeLa		>200 µg/mL
OC[C@@H]1C[C@@H](O)[C@H](n2cnc3c(NC4CCCCC4)nccc32)O1	MDBK		>400 µM
Cc1ccc(Nc2c[nH]c(=O)[nH]c2=O)cc1	Huh7 cells	MTT	>50 µg/mL

For reference, 11 entries again:

SMILES,cell line,method,result
COC1(CO)C(=O)N(C)CC(=O)N1C,VERO,,>10 µg/mL
CCOC(=O)[C@H]1O[C@@H]([C@@]2(C)O[C@]3(O[C@]4(C=C[C@H]3O)O[C@H]([C@@H](C)C(=O)[C@@H](C)[C@@H](O)[C@H](C)C[C@H](C)c3c(Cl)cc(C)c(O)c3C(=O)O)[C@@H](C)C[C@H]4C)[C@H](C)[C@H]2OC)C[C@H]1O,VERO,,1.68 µg/mL
OC[C@@H]1C[C@@H](O)[C@H](n2cnc3c(NC4CCCCC4)nc(Cl)cc32)O1,MDBK,,255 µM
CC(C)=CCC[C@@H](C)[C@@H]1CC[C@]2(C)C3=C(CC[C@@]12C)[C@@]1(C)CC[C@H](O)C(C)(C)[C@@H]1CC3,HT-29,sulforhodamine / absorbance,>50 µM
CCCCCCCCCCCCCCCCOP(=O)([O-])OCCC[N+](C)(C)C,MCF,MTT,45.2 µM
Nc1ncnc2c1ncn2C[C@@H](CO)OCP(=O)(O)O,TR-14,,>50 µg/mL
O=C1c2c(O)cc(O)cc2O[C@@H](c2ccc(O)cc2)[C@@H]1c1c(O)cc(O)c2c(=O)cc(-c3ccc(O)c(O)c3)oc12,P-388,sulforhodamine / absorbance,20.47 µM
CCOc1cc(OCC)nc(NC(=S)NC(=O)c2ccc(Cl)nc2)n1,MDCK,MTS,>300 µM
COc1cc(OC)nc(NC(=S)NC(=O)c2cccnc2)n1,MDCK,MTS,>300 µM
CO[C@H]1[C@@H](O)[C@H](O)[C@H](OC[C@@]23C[C@@H]4[C@H](C)CC[C@H]4[C@@]4(C=O)C[C@@H]2C=C(C(C)C)[C@@]34C(=O)O)O[C@@H]1C,HeLa,,200 µg/mL
COc1cc(OC)n2sc(=NC(=O)c3cccnc3)nc2n1,MDCK,MTS,>300 µM